Measured values published in the supplement of paper PMC9931576.
Where a chain is given by its changes, count along the chain named. Human monoclonal antibodies against the spike receptor-binding domain (heavy:light variable regions). IC50 against pseudoviruses bearing the spike of naturally observed variants; lower = stronger; >10 µg/ml means not reached at the top dose. No active / inactive call. The stated detection limit is 0.0005 µg/ml; values near or below 0.001 µg/ml lie at the floor of the assay.

B1: BD58-0461 (protein)
chain 1: QVQLVQSGAEVKKPGSSVKVSCKASGGTFSSYAISWVRQAPGQGLEWMGRIIPILGIGNYAQKFQARVTITADISTNTAYMELSSLRSEDTAVYYCARKEELSDYWGQGTLVTVSS
chain 2: SYELTQPPSVSVSPGQTASITCSGDKLGDKYAFWYQQKPGQSPVLVIYQDSERPSGIPERFSGSNSGNTATLTISGTQPMDEADYYCQAWDSSTEVFGGGTKLTVL
B2: BD58-0462 (protein)
chain 1: EVQLVESGGGLVQPGGSLRLSCAASGFTVSSNYMNWVRQAPGKGLEWVSIIYSGGSTNYADSLKGRFTISRDNSKNTLYLQMNSLRAEDTAVYYCARENQWFGEADYGMDVWGQGTTVTVSS
chain 2: QSVLTQPPSVSGAPGQRVTISCTGSSSNIGADYDVHWYQHLPGTAPKLLIYGNNNRPSGVPDRFSGSKSGASASLAITGLQAEDEADYYCQSYDNSLSGSKVFGGGTKLTVL
B3: BD56-280 (protein)
chain 1: QVTLRESGPALVKPTQTLTLTCTFSGFSLTTTGMCVSWIRQPPGKALEWLALIDWDDDKYYSTSLKTRLTISKDTSKNQVVLTMTNMDPVDTATYYCARTRGEGAESGFYGMDVWGQGTTVTVSS
chain 2: SYELTQPPSVSVSPGQTARITCSGDTLPNQYAYWYQQKSGQAPVLLIYKDSERPSGIPERFSGSSSGTTVTLTISGVQAEDEADYYCQSADSSGTYQVVFGGGTKLTVL
B4: BD58-0466 (protein)
chain 1: QVQLQESGPGLVKPSETLSLTCNVSGGSIISYYWSWIRQPPGKGLEWIGYIYYNGRTHYNPSLKSRVTISVDTSKNHFSLKLSSVTAADTAVYYCARDWGPDYGDAGGMDVWGQGTTVTVSS
chain 2: SYVLTQPPSVSVAPGKTARITCGGNNIGGKSVHWYQQKPGQAPVLVIYYDSDRPSGIPERFSGSNSGNTATLTISRVEAGDEADYYCQVWDGSSDHVVFGGGTKLTVL
B5: BD58-0472 (protein)
chain 1: EVQLVESGGGLVQPGRSLRLSCAASRFSFEDYAMHWVRQAPGKGLEWVSGITWNSDTIAYADSVKGRFTISRDNAKNSLYLQMNSLRPEDTALYYCAKENSSLKNWGQGTLVTVSS
chain 2: QPVLTQPPSASASLGASVTLTCTLSSGYSNYKVDWYQQRPGKGPRFVMRVGTGGIVGSKGDGIPDRFSVLGSGLNRYLTIKNIQEEDESEYHCGADHGSGSNFVWVFGGGTKLTVL
B6: BD58-0474 (protein)
chain 1: QVQLVQSGAEVKKPGASVKVSCKASGYTFTSYYIHWVRQAPGQGLEWMGIINPSGGYTTYAQKFQGRVTMTRDTSTSTVYMELSSLRSEDTAVYYCAREYYDLLTGYYHWFDPWGQGTLVTVSS
chain 2: B2 chain 2 with S25R, H40Q, G52A, N54S, N95S, K101Y, G105T, L109V
B7: BD58-0485 (protein)
chain 1: QVQLVESGGGVVQPGRSLRLSCAASGFNFSSYAMHWVRQAPGKGLEWVAVISYGGTDKYYPDSVKGRFTISRDNSKNTLYLQMNSLGAEDTAVYYCARAIMVRGAIMELEDLELEDYYYYDMDVWGQGTTVTVSS
chain 2: B1 chain 2 with K26R, F33S, Q36H, S51N, E52K, P79A, A89T, E95V, L103V
B8: BD58-0495 (protein)
chain 1: EMQLVESGGGLVQPGRSLRLSCAASGFTFDDFAVHWVRQAPGKGLEWVSGISWNSGDLGYADSVKGRVTISRDNAKKSLYLQMNSLRAEDTALYYCAKGMTGDLEFDAFDIWGQGTMVTVSS
chain 2: DIQMTQSPSSLSASVGDRVTFTCRASQNIANYLNWYQQKPGKAPKLLIYAASILQSGVPPRFSGSGSGTDFTLTISSLQPEDFATYYCQQSFNTLPFGQGTKVEVK
B9: BD58-0499 (protein)
chain 1: QVQLQESGPGLVKPSETLSLTCTVSGGSVISDGYHWSWVRQAPGKGLEWIGYIYYSGSTKYNPSLKSRVTISVDTSRNQFSLKLSSVTAADTAVYYCARDRGPYSSGWYAGEFEYWGQGTLVTVSS
chain 2: EIVLTQSPATLSLSPGERATLSCRASQSVSSYLAWYQQKPGQAPRLLIYDASNRATGIPARFSGSGSGTDFTLTISSLEPEDFAVYYCQQRSNWLITFGPGTKVDIK
B10: BD58-0502 (protein)
chain 1: EVQLVESGGGLVQPGGSLRLSCAASEFAFSYFEMNWVRQAPGKGLEWVSYISNTGSTIYYADSVKGRFIISRDNAKNSLYLQMNSLRAEDTAVYYCARDLSYYDSTPLYAFDIWGQGTMVTVSS
chain 2: DIQMTQSPSSLSASVGDRVTITCRASQSISIHLNWYQQKPGRAPKLLIYAASSLQSGVPSRFSGSGSGTDFTLTISSLQPEDFATYYCQQSSRTPPEWTFGQGTKVEMK

These binders were tested against SARS-CoV-2 Omicron BA.1 spike pseudovirus (assay: pseudovirus neutralization IC50; higher = weaker neutralization).
Procedure: (§1)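 Single-round VSV luciferase pseudovirus mixed with antibody dilutions for 1 h and put on Huh-7 cells for about a day; IC50 from the dose curve.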

Binder | pseudovirus neutralization IC50
B1 | 0.0259 µg/mL
B2 | > 10 µg/mL
B3 | 0.329 µg/mL
B4 | > 10 µg/mL
B5 | 0.0289 µg/mL
B6 | 0.122 µg/mL
B7 | 0.00692 µg/mL
B8 | 0.169 µg/mL
B9 | > 10 µg/mL
B10 | 0.232 µg/mL

The binders below were run against SARS-CoV-2 Omicron BA.2 spike pseudovirus in the same assay as above.
Procedure: as §1

Binder | pseudovirus neutralization IC50
B1 | 0.0133 µg/mL
B2 | 0.0757 µg/mL
B3 | 0.99 µg/mL
B4 | 0.0121 µg/mL
B5 | 0.0387 µg/mL
B6 | 0.124 µg/mL
B7 | 0.00358 µg/mL
B8 | 0.102 µg/mL
B9 | 0.00449 µg/mL
B10 | 0.069 µg/mL

The binders below were run against SARS-CoV-2 Omicron BA.2.75 spike pseudovirus in the same assay as above.
Procedure: as §1

Binder | pseudovirus neutralization IC50
B1 | 0.0287 µg/mL
B2 | > 10 µg/mL
B3 | > 10 µg/mL
B4 | > 10 µg/mL
B5 | 0.494 µg/mL
B6 | > 10 µg/mL
B7 | 0.00668 µg/mL
B8 | > 10 µg/mL
B9 | 0.247 µg/mL
B10 | 0.242 µg/mL

What follows are binders tested against SARS-CoV-2 Omicron BA.2.75.2 spike pseudovirus in the same assay as above.
Procedure: as §1

Binder | pseudovirus neutralization IC50
B1 | > 10 µg/mL
B2 | > 10 µg/mL
B3 | > 10 µg/mL
B4 | > 10 µg/mL
B5 | > 10 µg/mL
B6 | > 10 µg/mL
B7 | > 10 µg/mL
B8 | > 10 µg/mL
B9 | 0.254 µg/mL
B10 | 0.544 µg/mL

What follows are binders tested against SARS-CoV-2 Omicron BA.5 spike pseudovirus in the same assay as above.
Procedure: as §1

Binder | pseudovirus neutralization IC50
B1 | > 10 µg/mL
B2 | > 10 µg/mL
B3 | > 10 µg/mL
B4 | > 10 µg/mL
B5 | > 10 µg/mL
B6 | > 10 µg/mL
B7 | > 10 µg/mL
B8 | 1.5 µg/mL
B9 | 0.141 µg/mL
B10 | 0.138 µg/mL

The binders below were run against SARS-CoV-2 Omicron BM.1.1.1 spike pseudovirus in the same assay as above.
Procedure: as §1

Binder | pseudovirus neutralization IC50
B1 | > 10 µg/mL
B2 | > 10 µg/mL
B3 | > 10 µg/mL
B4 | > 10 µg/mL
B5 | > 10 µg/mL
B6 | > 10 µg/mL
B7 | > 10 µg/mL
B8 | > 10 µg/mL
B9 | 0.485 µg/mL
B10 | > 10 µg/mL

The binders below were run against SARS-CoV-2 Omicron BQ.1.1 spike pseudovirus in the same assay as above.
Procedure: as §1

Binder | pseudovirus neutralization IC50
B1 | > 10 µg/mL
B2 | > 10 µg/mL
B3 | > 10 µg/mL
B4 | > 10 µg/mL
B5 | > 10 µg/mL
B6 | > 10 µg/mL
B7 | > 10 µg/mL
B8 | > 10 µg/mL
B9 | 0.54 µg/mL
B10 | 0.306 µg/mL

What follows are binders tested against SARS-CoV-2 Omicron BR.2 spike pseudovirus in the same assay as above.
Procedure: as §1

Binder | pseudovirus neutralization IC50
B1 | > 10 µg/mL
B2 | > 10 µg/mL
B3 | > 10 µg/mL
B4 | > 10 µg/mL
B5 | > 10 µg/mL
B6 | > 10 µg/mL
B7 | > 10 µg/mL
B8 | > 10 µg/mL
B9 | 0.583 µg/mL
B10 | 0.325 µg/mL

What follows are binders tested against SARS-CoV-2 Omicron CA.1 spike pseudovirus in the same assay as above.
Procedure: as §1

Binder | pseudovirus neutralization IC50
B1 | > 10 µg/mL
B2 | > 10 µg/mL
B3 | > 10 µg/mL
B4 | > 10 µg/mL
B5 | > 10 µg/mL
B6 | > 10 µg/mL
B7 | > 10 µg/mL
B8 | > 10 µg/mL
B9 | 0.379 µg/mL
B10 | 0.214 µg/mL

What follows are binders tested against SARS-CoV-2 Omicron XBB spike pseudovirus in the same assay as above.
Procedure: as §1

Binder | pseudovirus neutralization IC50
B1 | > 10 µg/mL
B2 | > 10 µg/mL
B3 | > 10 µg/mL
B4 | > 10 µg/mL
B5 | > 10 µg/mL
B6 | > 10 µg/mL
B7 | > 10 µg/mL
B8 | > 10 µg/mL
B9 | 0.412 µg/mL
B10 | > 10 µg/mL

What follows are binders tested against SARS-CoV-2 early D614G spike pseudovirus in the same assay as above.
Procedure: as §1

Binder | pseudovirus neutralization IC50
B1 | > 10 µg/mL
B2 | > 10 µg/mL
B3 | > 10 µg/mL
B4 | > 10 µg/mL
B5 | > 10 µg/mL
B6 | > 10 µg/mL
B7 | > 10 µg/mL
B8 | > 10 µg/mL
B9 | > 10 µg/mL
B10 | > 10 µg/mL
